Tests used:
Assay in all cases: SPR
[1] = biological target: T1, BANAL-103 S-RBD (residues 326 to 526) (bat coronavirus BANAL-103)
[2] = biological target: T2, BANAL-52 S-RBD (residues 330 to 530) (bat coronavirus BANAL-52)
[3] = biological target: T1, BANAL-103 S-RBD (residues 326 to 526); remark: listed apart in the source
[4] = biological target: T2, BANAL-52 S-RBD (residues 330 to 530); remark: listed apart in the source

B1: Rhinolophus pusillus bat ACE2 ectodomain (residues 18 to 615) (domain or fragment)
chain: QSITEDKAKKFLNDFNSEAEDLSYQSSLASWDYNTNISDENVQKMDEAGAKWSAFYEEQSKIAKNYPLEEIQTDIVKRQLQILQQSGSPVLSEDKSKRLNSILNAMSTIYSTGKVCKPNNPQECLLLEPGLDNIMGTSKDYHERLWAWEGWRAEVGKQLRPLYEEYVVLKNEMARGYHYEDYGDYWRRDYETEESSGPGYSRDQLMKDVDRIFTEIKPLYEHLHAYVRAKLMDTYPLHISPTGCLPAHLLGDMWGRFWTNLYPLTVPFGQKPNIDVTDEMVKQGWDANRIFKEAEKFFVSVGLPNMTEGFWNNSMLTEPGDGRKVVCHPTAWDLGKGDFRIKMCTKVTMEDFLTAHHEMGHIQYDMAYASQPYLLRNGANEGFHEAVGEVMSLSVATPKHLKTMGLLSPDFREDDETEINFLLKQALNIVGTLPFTYMLEKWRWMVFKGEIPKEEWMKKWWEMKREIVGVVEPVPHDETYCDPASLFHVANDYSFIRYYTRTIFEFQFHEALCRIAQHNGPLHKCDISNSTDAGKKLHQMLSVGKSQAWTKTLEDIVGSRNMDVGPLLRYFKPLYTWLQEQSRKSYVGWNTDWSPYSD
Which results are given for B1?
koff [1]: 0.0044 s⁻¹; koff [2]: 0.0022 s⁻¹; Kd [3]: 55 nM; Kd [4]: 46 nM

Reference: publication PMC12363188 (2025)
